A mixed list of measured activities; the numbers were collected in NIAID ChemDB.

All rows: growth or infection tests; agent: HIV-1; read by: cytopathic effect / MTT; read-out: EC50

Blank or dashed fields: not listed here.

compound	cells	strain or isolate	mutations	result
NC(=O)c1[nH]c2ccc(Cl)cc2c1S(=O)(=O)c1ccccc1	MT-4		RT-Y181C	0.08 µM
Cc1c(N)cccc1C(=O)N[C@@H](Cc1ccccc1)[C@@H](O)CN1C[C@H]2CCCC[C@H]2C[C@H]1C(=O)NC(C)(C)C	CEM	IIIB		0.244 µg/mL
Cc1cc(C)cc(S(=O)(=O)c2c(C(=O)NCCO)[nH]c3ccc(Cl)cc23)c1	MT-4	IIIB		0.0008 µM
CCc1c(Cc2cc(Cl)cc(Cl)c2)n(COC/C(C)=C/c2ccccc2)c(=O)[nH]c1=O	MT-4	IIIB		0.03 µM
C[C@H]1Cn2c(=O)[nH]c3cccc(c32)CN1	MT-4	IIIB		>901 µM
CCCc1c(Cc2cc(C)cc(C)c2)n(COCC2CC=CCC2)c(=O)[nH]c1=O	MT-4	IIIB		0.08 µM
CCOCn1c(Cc2cc(Cl)cc(Cl)c2)c(CC)c(=O)[nH]c1=O	MT-4	NNRTI-resistant (RT Y181C) N119	RT-Y181C	>10 µM
Cc1ccccc1S(=O)(=O)c1c(C(=O)NCCO)[nH]c2ccc(Cl)cc12	MT-4		RT-Y181C	1.2 µM
CCc1c(Cc2cc(C)cc(C)c2)n(COC2C=CCCC2)c(=O)[nH]c1=O	MT-4	NNRTI-resistant (RT K103N Y181C) A17	RT-K103N Y181C	>100 µM
Fc1cccc(F)c1CCNC(=S)Nc1ccc(Br)c(Cl)n1	MT-4	IIIB		0.0017 µg/mL
O=C(NNCCO)c1[nH]c2ccc(Cl)cc2c1S(=O)(=O)c1ccccc1	MT-4		RT-K103N Y181C	20 µM
CCCc1c(Cc2cc(C)cc(C)c2)n(COC/C(C)=C/c2ccccc2)c(=O)[nH]c1=O	MT-4	IIIB		0.03 µM
COC(=O)/C=C/CN1Cc2cccc3[nH]c(=O)n(c23)CC1C	MT-4	IIIB		>252 µM
Cc1cc(NC(=S)NCCc2c(F)cccc2F)ncc1Br	MT-4	IIIB		0.019 µg/mL
C=C(C)COCn1c(CC2CCCc3ccccc32)c(CC)c(=O)[nH]c1=O	MT-4	IIIB		3 µM
CSCSc1nc(Cc2c(F)cccc2F)cc(=O)[nH]1	MT-4	IIIB	RT-K103N Y181C	>100 µM
CCOC(=O)c1cc2c3cccc(N)c3c3ccc(OC)cc3n2c1C	MT-4			>200 µM
Cc1cc(C)cc(Sc2c(C(=O)NNCCO)[nH]c3ccc(Cl)cc23)c1	MT-4		RT-Y181C	1 µM
Cn1cc(C(=O)O)c(=O)c2cc(F)c(N3CC=C(c4ccccc4)CC3)c(C(F)(F)F)c21	MT-4			0.2 µM
C=C(C)COCn1c(Cc2cc(Cl)cc(Cl)c2)c(CC)c(=O)[nH]c1=O	MT-4	NNRTI-resistant (RT K103N Y181C) A17	RT-K103N Y181C	>10 µM
C=CCNc1nn2c(=O)c3ccccc3nc2s1	MT-4	IIIB		66.8 µg/mL
Cc1cn([C@H]2C=C[C@@H](CO)O2)c(=O)[nH]c1=O	MT-4	RD 03-RT-41L 210W C215Y K65R Recombinant		0.75 µM
C#CCOCn1c(Cc2cc(Cl)cc(Cl)c2)c(CC)c(=O)[nH]c1=O	MT-4	NNRTI-resistant (RT Y181C) N119	RT-Y181C	12 µM
Cc1cccnc1NC(=S)NCCc1c(F)cccc1F	MT-4	IIIB		0.0494 µg/mL
CCOCn1c(CC2CCCc3ccccc32)c(CC)c(=O)[nH]c1=O	MT-4	IIIB		4 µM
C=CCOCn1c(Cc2cc(Cl)cc(Cl)c2)c(CC)c(=O)[nH]c1=O	MT-4	NNRTI-resistant (RT K103N Y181C) A17	RT-K103N Y181C	3 µM
O=c1c2ccccc2nc2sc(Nc3ccccc3)nn12	MT-4	IIIB		35.3 µg/mL
CSCSc1nc(C(C)c2c(F)cccc2F)cc(=O)[nH]1	MT-4	IIIB	RT-K103N Y181C	>100 µM
CCOC(=O)c1cc2c3cccc(OC)c3c3c(N)cccc3n2c1C	MT-4			120 µM
CCc1c(Cc2cc(C)cc(C)c2)n(COC/C(C)=C/c2ccccc2)c(=O)[nH]c1=O	MT-4	NNRTI-resistant (RT Y181C) N119	RT-Y181C	2 µM
CC(C)(C)NC(=O)[C@@H]1C[C@@H]2CCCC[C@@H]2CN1C[C@H](O)[C@H](Cc1ccccc1)NC(=O)c1cccc(Cl)c1Cl	CEM	IIIB		1.895 µg/mL
CCCc1c(Cc2ccccc2)n(COC/C=C/c2ccccc2)c(=O)[nH]c1=O	MT-4	IIIB		0.01 µM
C[C@@H]1Cn2c(=O)[nH]c3cccc(c32)CN1	MT-4	IIIB		>901 µM
CCOC(=O)c1cc2c3cc(OC)ccc3c3ccc(N)cc3n2c1C	MT-4			100 µM
Fc1cccc(F)c1CCNC(=S)Nc1ncc(Cl)cc1Cl	MT-4	IIIB		0.887 µg/mL
CC(C)(C)NC(=O)[C@@H]1C[C@@H]2CCCC[C@@H]2CN1C[C@@H](O)[C@H](Cc1ccccc1)NC(=O)c1cccnc1Cl	CEM	IIIB		1.48 µg/mL
C/C=C/C=C/CN1Cc2cccc3[nH]c(=O)n(c23)CC1C	MT-4	IIIB		>378 µM
Cc1ccc(S(=O)(=O)c2c(C(=O)NNCCO)[nH]c3ccc(Cl)cc23)cc1	MT-4	IIIB		0.04 µM
O=C(O)c1cn(-c2ccc(Cn3cncn3)cc2)c2c(OC(F)F)c(N3CC=C(c4ccccc4)CC3)c(F)cc2c1=O	MT-4			0.043 µM
COc1cccc(-c2cc(C(C)=O)c(C)n2-c2cccc(N=[N+]=[N-])c2)c1	MT-4			>8.7 µM
CCCc1c(Cc2cc(C)cc(C)c2)n(COC2C=CCCC2)c(=O)[nH]c1=O	MT-4	IIIB		0.03 µM
O=C(NCCO)c1[nH]c2ccc(Cl)cc2c1S(=O)(=O)c1ccccc1	MT-4		RT-K103N Y181C	4.2 µM
Cc1c(NS(C)(=O)=O)cccc1C(=O)N[C@@H](Cc1ccccc1)[C@@H](O)CN1C[C@H]2CCCC[C@H]2C[C@H]1C(=O)NC(C)(C)C	CEM	IIIB		2.08 µg/mL
O=C(NCCO)c1[nH]c2ccc(Cl)cc2c1Sc1ccccc1	C8166	IIIB		0.05 µM
CC(C)(C)NC(=O)[C@@H]1C[C@@H]2CCCC[C@@H]2CN1C[C@@H](O)[C@H](Cc1ccccc1)NC(=O)c1cccc(O)c1Cl	MT-2	RF		0.518 µg/mL
COc1cccnc1NC(=S)NCCc1c(F)cccc1F	MT-4	IIIB		>2.75 µg/mL

For reference, 5 entries again:

compound,cells,strain or isolate,mutations,result
CCOCn1c(Cc2cc(Cl)cc(Cl)c2)c(CC)c(=O)[nH]c1=O,MT-4,NNRTI-resistant (RT Y181C) N119,RT-Y181C,>10 µM
C#CCOCn1c(Cc2cc(Cl)cc(Cl)c2)c(CC)c(=O)[nH]c1=O,MT-4,NNRTI-resistant (RT Y181C) N119,RT-Y181C,12 µM
CCCc1c(Cc2cc(C)cc(C)c2)n(COC2C=CCCC2)c(=O)[nH]c1=O,MT-4,IIIB,,0.03 µM
Cc1cccnc1NC(=S)NCCc1c(F)cccc1F,MT-4,IIIB,,0.0494 µg/mL
CCOC(=O)c1cc2c3cc(OC)ccc3c3ccc(N)cc3n2c1C,MT-4,,,100 µM

Rows are shuffled and stem from different studies. ECn is the concentration giving n% inhibition of infection, replication or growth.